{"source": "patent US20240352542A1", "about": "“MEANS AND METHODS FOR DIAGNOSING A VIRAL INFECTION OR A DISEASE ASSOCIATED THEREWITH” (Bruker Biospin GmbH & Co. KG, priority 2023, published 2024)", "note": "Some compounds share one wording; it may come from a single statement.", "data": [{"test": "1H NMR detection and quantification of ddhNs in urine, SARS-CoV-2 (+) cohort vs controls", "design": "species or system human", "details": "urine of acute phase SARS-CoV-2 patients, normalised to creatinine", "values": [{"smiles": "Nc1ccn([C@@H]2OC(CO)=C[C@H]2O)c(=O)n1", "note": "[ddhC (1), 3′-deoxy-3′,4′-didehydro-cytidine]", "normalized urinary concentration": "> 20.0 μM/mM creatinine"}, {"smiles": "Nc1ccn([C@@H]2OC(C(=O)O)=C[C@H]2O)c(=O)n1", "note": "[ddhC-5′CA (2), 3′,5′-dideoxy-3′,4′-didehydrocytidine-5′-carboxylic acid]", "normalized urinary concentration": "~10.0 μM/mM creatinine"}, {"smiles": "Nc1ccn([C@@H]2OC(CSCC[C@H](N)C(=O)O)=C[C@H]2O)c(=O)n1", "note": "[ddhC-5′Hcy (4), 3′,5′-dideoxy-3′,4′-didehydrocytidine-5′-homocysteine]", "normalized urinary concentration": "up to 7.0 μM/mM creatinine"}, {"smiles": "O=c1ccn([C@@H]2OC(CO)=C[C@H]2O)c(=O)[nH]1", "note": "[ddhU (3), 3′-deoxy-3′,4′-didehydro-uridine]", "normalized urinary concentration": "> 10.0 μM/mM creatinine"}]}, {"test": "1H NMR detection and quantification of ddhNs in urine, SARS-CoV-2 (+) cohort vs controls", "design": "species or system human", "details": "~32 scans, 600 MHz, unfractionated urine", "values": [{"smiles": "CSCC1=C[C@@H](O)[C@H](n2ccc(N)nc2=O)O1", "note": "[ddhC-5′MeS (7), 3′,5′-dideoxy-3′,4′-didehydrocytidine-5′-thiomethyl]", "detectability in standard urine 1H NMR acquisition": "below the limit of detection"}, {"smiles": "C[S+](CCC(N)C(=O)O)CC1=C[C@@H](O)[C@H](n2ccc(N)nc2=O)O1", "note": "(stereo partly shown) [ddhC-5′Met (8), 3′,5′-dideoxy-3′,4′-didehydrocytidine-5′-Methionine]", "detectability in standard urine 1H NMR acquisition": "below the limit of detection"}, {"smiles": "C[S+]([O-])CC1=C[C@@H](O)[C@H](n2ccc(N)nc2=O)O1", "note": "(stereo partly shown) [ddhC-5′SO (6), 3′,5′-dideoxy-3′,4′-didehydrocytidine-5′-thiomethylsulfoxide]", "detectability in standard urine 1H NMR acquisition": "below the limit of detection"}]}]}
